Compound potency records, mixed from different reports. Data source: NIAID ChemDB in PubChem.

Shared fields: whole-cell or culture tests

Blank or dashed fields: not listed here.

| SMILES | measure | read by | species | strain | conditions | dose | result |
|---|---|---|---|---|---|---|---|
| CCCCCCCCCCCCCCC(=O)NC(CCC(=O)O)(CCC(=O)O)CCC(=O)O | MIC | - | Mycobacterium chelonae | EO-P-1 | - | - | 54 µg/mL |
| Cc1nc2ccc(Br)cn2c1C(=O)NCc1ccc(N2CCN(c3ccc(C(F)(F)F)cn3)CC2)c(F)c1 | inhibition | fluorescence | Mycobacterium avium | - | - | 0.02 µM | 85% |
| O=c1oc2ccc(Br)cc2c(=S)n1-c1ccccc1 | MIC | - | Mycobacterium kansasii | My 235/80 | 14 d | - | 2 µM |
| CCCCCCCCCCCCCCCC(=O)NC(CCC(=O)O)(CCC(=O)O)CCC(=O)O | MIC | - | Mycobacterium marinum | ATCC 927 | - | - | 288 µg/mL |
| CC1(C)N=C(N)N=C(N)N1OCCCOc1cc(Cl)c(Cl)cc1Cl | MIC | - | Mycobacterium avium complex | KT | - | - | ≤0.5 µg/mL |
| CCCCCCCCCCCCC(CCCCCCCCCCCC)OC(=O)NC(CCC(=O)O)(CCC(=O)O)CCC(=O)O | MIC | - | Mycobacterium chelonae | EO-P-1 | - | - | 71 µg/mL |
| Cc1ccc2oc(=S)n(-c3ccc(Cl)c(Cl)c3)c(=S)c2c1 | MIC | - | Mycobacterium kansasii | My 235/80 | 21 d | - | 8 µM |
| CC[C@H]1OC(=O)[C@H](C)[C@@H](O[C@H]2C[C@@](C)(OC)[C@@H](O)[C@H](C)O2)[C@H](C)[C@@H](O[C@@H]2O[C@H](C)C[C@H](N(C)C)[C@H]2O)[C@](C)(OC)C[C@@H](C)C(=O)[C@H](C)[C@@H](O)[C@]1(C)O | MIC | - | Mycobacterium abscessus | AAy-P-1 | - | - | 0.2 µg/mL |
| Cc1ccn2c(C(=O)NCc3ccc(C4CCN(c5ccc(OC(F)(F)F)cc5)CC4)cc3F)c(C)nc2c1 | inhibition | fluorescence | Mycobacterium avium | - | - | 0.58 µM | 85% |
| CC[C@H]1OC(=O)[C@H](C)[C@@H](O[C@H]2C[C@@](C)(OC)[C@@H](OC(C)=O)[C@H](C)O2)[C@H](C)[C@@H](O[C@@H]2O[C@H](C)C[C@H](N(C)C)[C@H]2OC(=O)NN2CCCCC2)C(C)(O)C[C@@H](C)/C(=N\OCCCC2CCCCC2)[C@H](C)[C@@H](O)[C@]1(C)O | MIC | - | Mycobacterium avium complex | 20039 (clarithromycin-susceptible) | - | - | 3.13 µg/mL |
| CCc1nc2cc(F)ccn2c1C(=O)NCc1ccc(N2C[C@H](C)N(c3ccc(OCC(F)(F)F)nc3)C[C@H]2C)c(F)c1.Cl | inhibition | fluorescence | Mycobacterium avium | - | - | 0.12 µM | 85% |
| CCCCCCCCCCCCCC(=O)NC(CCC(=O)O)(CCC(=O)O)CCC(=O)O | MIC | - | Mycobacterium chelonae | EO-P-1 | - | - | 36 µg/mL |
| Cc1ccc2oc(=O)n(-c3ccc(Br)cc3)c(=S)c2c1 | MIC | - | Mycobacterium kansasii | 6509/96 | 21 d | - | 4 µM |
| CCCCCCO/N=C1\[C@H](C)CC(C)(O)[C@H](O[C@@H]2O[C@H](C)C[C@H](N(C)C)[C@H]2O)[C@@H](C)[C@H](OC2C[C@@](C)(OC)[C@@H](O)[C@H](C)O2)[C@@H](C)C(=O)O[C@H](CC)[C@@](C)(O)[C@H](O)[C@H]1C | MIC | - | Mycobacterium avium complex | 20039 (clarithromycin-susceptible) | - | - | 1.56 µg/mL |
| Cc1ccc2oc(=S)n(-c3ccc(C(F)(F)F)cc3)c(=S)c2c1 | MIC | - | Mycobacterium kansasii | My 235/80 | 21 d | - | 16 µM |
| CCCCCCCCCCC(CCCCCCCCCC)NC(=O)NC(CCC(=O)O)(CCC(=O)O)CCC(=O)O | MIC | - | Mycobacterium abscessus | AAy-P-1 | - | - | 36 µg/mL |
| Cc1ccc2oc(=O)n(-c3ccc(Cl)c(Cl)c3)c(=S)c2c1 | MIC | - | Mycobacterium kansasii | My 235/80 | 21 d | - | 8 µM |
| CCc1nc(N)nc(N)c1-c1ccc(Cl)cc1 | MIC | - | Mycobacterium avium complex | DW29 | - | - | 16 µg/mL |
| COc1ccc2oc(=S)n(-c3ccc(Cl)c(Cl)c3)c(=S)c2c1 | MIC | - | Mycobacterium kansasii | My 235/80 | 21 d | - | 32 µM |
| CCCCOc1ccc(N2CCC(c3ccc(CNC(=O)c4c(CC)nc5ccc(Cl)cn45)c(F)c3)CC2)cc1.Cl | inhibition | fluorescence | Mycobacterium avium | - | - | 0.016 µM | 85% |
| CCC(=O)O[C@H]1[C@H](C)[C@@H](O[C@@H]2O[C@H](C)C[C@H](N(C)C)[C@H]2O)C(C)(O)C[C@@H](C)/C(=N\OCCCOc2ccccc2)[C@H](C)[C@@H](O)[C@](C)(O)[C@@H](CC)OC(=O)[C@@H]1C | MIC | - | Mycobacterium avium complex | 20096 (clarithromycin-resistant) | - | - | 25 µg/mL |
| CCc1nc2ccc(Cl)cn2c1C(=O)NCc1ccc(C2CCN(c3ccc(OCC4CC4)cc3)CC2)c(F)c1.Cl | inhibition | fluorescence | Mycobacterium avium | - | - | 0.016 µM | 85% |
| CO[C@H]1/C=C/O[C@@]2(C)Oc3c(C)c(O)c4c(O)c(c(/C=N/N5CCN(C6CCCC6)CC5)c(O)c4c3C2=O)NC(=O)/C(C)=C\C=C\[C@H](C)[C@H](O)[C@@H](C)[C@@H](O)[C@@H](C)[C@H](OC(C)=O)[C@@H]1C | MIC | - | Mycobacterium avium intracellulare | 1296 | - | - | 0.25 µg/mL |

Again, the opening 2 rows:

SMILES	measure	read by	species	strain	conditions	dose	result
CCCCCCCCCCCCCCC(=O)NC(CCC(=O)O)(CCC(=O)O)CCC(=O)O	MIC	-	Mycobacterium chelonae	EO-P-1	-	-	54 µg/mL
Cc1nc2ccc(Br)cn2c1C(=O)NCc1ccc(N2CCN(c3ccc(C(F)(F)F)cn3)CC2)c(F)c1	inhibition	fluorescence	Mycobacterium avium	-	-	0.02 µM	85%

Inhibition is in % at the dose shown (toxicity tests: loss of growth or viability). Neighbouring rows are from separate reports.